Data from paper PMC5871717, “Transposase-DNA Complex Structures Reveal Mechanisms for Conjugative Transposition of Antibiotic Resistance” (Cell, 2018).
The exact form of at least one protein or probe is not confirmed. At least one verdict rests on a figure or table, not on a statement of the authors.

Molecular target: 384C (Enterococcus faecalis) (UniProt Q7BP35)
Assay: EMSA
Conditions: DNA presumed CI5, […] (50 mM HEPES pH 7.5, 250 mM NaCl, 5 mM DTT, 10% glycerol), recombinant protein, residues 82-384, protein details: 6xHis-SUMO removed by SenP2, label: 5'-32P in EMSA, none in crystals

TGCGATAACCTAAAATTTTATAGCAAAATTATATGGGATTTTAG / CTAAAATCCCATATAATTTTGCTATAAAATTTTAGGTTATCGCT [CI5]
binding result: binds
